PubChem BioAssay AID624099 – ICCB-Longwood, 2012
Aim: 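Human genes that papillomavirus E2 requires to repress the HPV18 LCR promoter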 (primary screen). System: human C33A cervical carcinoma cells (HPV-negative) stably expressing BPV1 E2 and an HPV18 LCR luciferase reporter. Reagent: siRNA pool against human genes, 40 nM. Duration: 72 h. Measured: 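HPV18 LCR reporter light per well, converted to plate-wise z-scores that exclude control wells, and averaged over triplicate plates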. Scale: mean z-score and z-score: higher = stronger reporter signal, weaker E2 silencing. Call rule: 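Hit if mean z-score reaches 2 and two or more of three replicate z-scores also reach 2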.
Shown is an unselected part of about 21,000 reagents. Of all reagents, 497 (2.4%) are marked active. 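Higher z means weaker E2 silencing; only reporter increases were scored, and knock-downs that hurt cell survival may mask genuine repressor factors.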 The numbers tell different reagents against one gene apart.

The opening 3 entries, ahead of the listing:
target gene | reagent no. | mean z-score | z-score, replicate A | z-score, replicate B | z-score, replicate C | activity call
NTAQ1 (GeneID 55093) | 1 | 1.8 | 1.97 | 1.72 | 1.69 | inactive
SYT14 (GeneID 255928) | 1 | -0.27 | -0.39 | -0.22 | -0.2 | inactive
FAM30A (GeneID 9834) | 1 | 4.86 | 4.7 | 5.18 | 4.69 | active

The listing, repeating the preview:
target gene | reagent no. | mean z-score | z-score, replicate A | z-score, replicate B | z-score, replicate C | activity call
NTAQ1 (GeneID 55093) | 1 | 1.8 | 1.97 | 1.72 | 1.69 | inactive
SYT14 (GeneID 255928) | 1 | -0.27 | -0.39 | -0.22 | -0.2 | inactive
FAM30A (GeneID 9834) | 1 | 4.86 | 4.7 | 5.18 | 4.69 | active
SH3BP5 (GeneID 9467) | 1 | 2.65 | 2.98 | 2.42 | 2.54 | active
PPP2R3B (GeneID 28227) | 1 | -0.1 | 0.15 | -0.29 | -0.17 | inactive
RAB3C (GeneID 115827) | 1 | -0.58 | -0.63 | -0.44 | -0.66 | inactive
ZDHHC13 (GeneID 54503) | 1 | -0.86 | -1.02 | -0.75 | -0.82 | inactive
CYP4F11 (GeneID 57834) | 1 | -0.6 | -0.57 | -0.48 | -0.74 | inactive
NOL4 (GeneID 8715) | 1 | -0.51 | -0.58 | -0.4 | -0.54 | inactive
KERA (GeneID 11081) | 1 | -2.96 | -3.03 | -3.03 | -2.83 | inactive
ODAM (GeneID 54959) | 1 | 0.2 | 0.23 | 0.25 | 0.11 | inactive
RPSAP32 (GeneID 402123) | 1 | 0.23 | 0.5 | 0.07 | 0.11 | inactive
FLAD1 (GeneID 80308) | 1 | 0.44 | 0.22 | 0.41 | 0.7 | inactive
CLDN18 (GeneID 51208) | 1 | 1.31 | 1.47 | 1.35 | 1.1 | inactive
CFAP206 (GeneID 154313) | 1 | -0.44 | 0.13 | -0.64 | -0.83 | inactive
B3GNT2 (GeneID 10678) | 1 | -0.09 | 0.15 | -0.43 | 0 | inactive
ANKRD23 (GeneID 200539) | 1 | -1.49 | -1.59 | -1.39 | -1.47 | inactive
SLC7A6OS (GeneID 84138) | 1 | -0.8 | -1.42 | -0.35 | -0.64 | inactive
LYSMD3 (GeneID 116068) | 1 | -1.54 | -1.82 | -1.28 | -1.54 | inactive
CCDC97 (GeneID 90324) | 1 | 1.3 | 0.41 | 1.31 | 2.17 | inactive
PI4K2B (GeneID 55300) | 1 | -1 | -1.3 | -1.25 | -0.46 | inactive
RASGEF1C (GeneID 255426) | 1 | -1.32 | -0.84 | -1.55 | -1.58 | inactive
ADH1C (GeneID 126) | 1 | 1.18 | 1.07 | 1.39 | 1.08 | inactive
POMGNT2 (GeneID 84892) | 1 | 1.54 | 1.46 | 1.57 | 1.59 | inactive
ZRANB3 (GeneID 84083) | 1 | 1.01 | 1.38 | 0.91 | 0.75 | inactive
ANAPC2 (GeneID 29882) | 1 | -0.7 | -0.92 | -0.22 | -0.96 | inactive
EFNA3 (GeneID 1944) | 1 | 0.08 | 0.04 | 0.11 | 0.09 | inactive
HSALR1 (GeneID 100289580) | 1 | 0.32 | – | -0.02 | 0.66 | inactive
LOC128939 (retired record) (GeneID 128939) | 1 | 0.03 | 0.02 | 0.07 | 0 | inactive
RAP2C (GeneID 57826) | 1 | -0.77 | -0.95 | -0.69 | -0.67 | inactive
ILDR2 (GeneID 387597) | 1 | -0.05 | – | 0.16 | -0.25 | inactive
HEXIM1 (GeneID 10614) | 1 | 0.07 | -0.1 | 0.04 | 0.28 | inactive
UTP18 (GeneID 51096) | 1 | 0.45 | 0.04 | 0.79 | 0.52 | inactive
ACSF2 (GeneID 80221) | 1 | -0.28 | -0.04 | -0.52 | -0.27 | inactive
TBC1D12 (GeneID 23232) | 1 | -0.98 | -0.87 | -1.14 | -0.93 | inactive
SPIDR (GeneID 23514) | 1 | -0.52 | -0.94 | -0.38 | -0.23 | inactive
FOXO3 (GeneID 2309) | 1 | -1.23 | -0.94 | -1.53 | -1.22 | inactive
GFRA3 (GeneID 2676) | 1 | -0.63 | -0.61 | -0.81 | -0.47 | inactive
MAGEB1 (GeneID 4112) | 1 | -0.59 | -0.68 | -0.65 | -0.45 | inactive
AGPS-DT (GeneID 100130691) | 1 | -0.12 | -0.44 | 0.04 | 0.03 | inactive
JPH3 (GeneID 57338) | 1 | -0.79 | -0.71 | -0.92 | -0.74 | inactive
CATSPERB (GeneID 79820) | 1 | -0.61 | -0.69 | -0.58 | -0.55 | inactive
DCPS (GeneID 28960) | 1 | -0.3 | 0.06 | -0.35 | -0.63 | inactive
RNF115 (GeneID 27246) | 1 | -0.25 | -0.44 | -0.2 | -0.12 | inactive
PCYOX1 (GeneID 51449) | 1 | -1.09 | -0.59 | -1.18 | -1.5 | inactive
RNF19A (GeneID 25897) | 1 | -0.12 | -0.32 | 0.17 | -0.2 | inactive
FICD (GeneID 11153) | 1 | -0.15 | 0.12 | -0.39 | -0.19 | inactive
OR2T6 (GeneID 254879) | 1 | -1 | -1.1 | -0.92 | -0.98 | inactive
FAM76A (GeneID 199870) | 1 | -0.34 | -0.3 | -0.92 | 0.2 | inactive
ANGEL2 (GeneID 90806) | 1 | -0.37 | -0.26 | -0.27 | -0.58 | inactive
FCGR2B (GeneID 2213) | 1 | -0.44 | -0.4 | -0.39 | -0.53 | inactive
SIRPB1 (GeneID 10326) | 1 | -0.18 | -0.48 | 0.07 | -0.11 | inactive
ISY1 (GeneID 57461) | 1 | 1.84 | 1.65 | 1.52 | 2.34 | inactive
SLC25A17 (GeneID 10478) | 1 | -0.93 | -0.63 | -1.14 | -1.01 | inactive
LOC401433 (retired record) (GeneID 401433) | 1 | 1.36 | 1.5 | 1.11 | 1.48 | inactive
LOC401433 (retired record) (GeneID 401433) | 2 | 1.49 | 1.64 | 1.4 | 1.44 | inactive
HLA-DPA1 (GeneID 3113) | 1 | 1.01 | 1.1 | 0.95 | 0.99 | inactive
ING5 (GeneID 84289) | 1 | -0.06 | 0.06 | -0.05 | -0.17 | inactive
ING5 (GeneID 84289) | 2 | -0.2 | 0.32 | -0.76 | -0.18 | inactive
EIF4H (GeneID 7458) | 1 | 0.96 | 1.51 | 0.74 | 0.62 | inactive
OCA2 (GeneID 4948) | 1 | 0.51 | 0.43 | 0.42 | 0.69 | inactive
TMEM106B (GeneID 54664) | 1 | -0.81 | -0.9 | -0.93 | -0.59 | inactive
AHNAK (GeneID 79026) | 1 | 0.59 | 0.66 | 0.48 | 0.63 | inactive
AMMECR1L (GeneID 83607) | 1 | -1.83 | -2.14 | -1.69 | -1.65 | inactive
DNAL4 (GeneID 10126) | 1 | -0.39 | -0.69 | -0.21 | -0.28 | inactive
ELAVL2 (GeneID 1993) | 1 | -1.23 | -0.78 | -1.52 | -1.4 | inactive
LOC341720 (retired record) (GeneID 341720) | 1 | 0.19 | 0.26 | 0.2 | 0.1 | inactive
PTPRA (GeneID 5786) | 1 | 1.02 | 1.59 | 1.01 | 0.46 | inactive
BEX4 (GeneID 56271) | 1 | 0.29 | 0.19 | 0.35 | 0.34 | inactive
LOC388648 (retired record) (GeneID 388648) | 1 | -1.58 | -1.69 | -1.08 | -1.98 | inactive
GGNBP2 (GeneID 79893) | 1 | -0.32 | -0.12 | -0.22 | -0.64 | inactive
HSP90AA1 (GeneID 3320) | 1 | 0.13 | 0.18 | 0.07 | 0.14 | inactive
URM1 (GeneID 81605) | 1 | 0.34 | 0.18 | 0.41 | 0.43 | inactive
